Compound potency records, mixed from different reports. Data source: NIAID ChemDB in PubChem.

All rows: growth or infection tests; organism: Candida tropicalis

ECn: concentration that inhibits the pathogen or its effect by n%. A number after MIC or MFC names an inhibition level or a share of isolates. Two numbers with a dash give a range or band. Neighbouring rows are from separate reports. Blank or dashed fields: not listed here.

| smiles | strain | conditions | endpoint | method | result |
|---|---|---|---|---|---|
| CCC(C)n1ncn(-c2ccc(N3CCN(c4ccc(OC[C@H]5CO[C@](Cn6cncn6)(c6ccc(Cl)cc6Cl)O5)cc4)CC3)cc2)c1=O | 54 isolates | - | MIC50 | - | 0.25 µg/mL |
| O[C@](Cn1cncn1)(Cn1cnc(/C=C/c2ccc(OCC(F)(F)C(F)F)cc2)n1)c1ccc(F)cc1F | 10 strains | - | Mean MIC80 | - | 0.06 µg/mL |
| C/C=C/c1ccc(O)c(OC)c1 | - | - | MIC | broth dilution | 550 µg/mL |
| CC(=O)N1CCN(c2ccc(OC[C@H]3CO[C@](Cn4ccnc4)(c4ccc(Cl)cc4Cl)O3)cc2)CC1 | Clinical isolates | - | MIC | - | 16 µg/mL |
| COc1ccc2cc(C3=CN4CCC3CC4)ccc2c1 | ATCC 13803 | - | EC50 | broth dilution | >16 µg/mL |
| CCCCCCCCOc1ccc(-c2ccc(C(=O)NC3CC(NCCN)CNC(=O)[C@@H]4[C@@H](O)[C@@H](C)CN4C(=O)[C@@H](CO)NC(=O)[C@H]([C@H](O)Cc4ccccc4)NC(=O)[C@@H]4C[C@@H](O)CN4C(=O)[C@H]([C@@H](C)O)NC3=O)cc2)cc1 | NEM_7114236 | - | MIC | resazurin | 2.5 µg/mL |
| c1ccc([Se][Se]c2ccccc2)cc1 | - | - | MFC | broth dilution | >64 µg/mL |
| CN(C/C=C/C#CC(C)(C)C)Cc1cccc2ccccc12 | ATCC 750 | - | MIC100 | broth dilution | >100 µg/mL |
| O=C(O)c1cc(O)c(O)c(O)c1 | ATCC 750 | - | MLC | broth dilution | 200 µg/mL |
| C=CCc1ccc(OC)cc1 | - | - | MIC90 | - | 0.016–0.025 µg/mL |
| C[C@@H]1[C@H](O)[C@@H](C)/C=C/C=C/CC/C=C/C=C/C=C/C=C/C(O[C@H]2O[C@H](C)[C@@H](O)[C@H](N)[C@@H]2O)CC2O[C@](O)(CC(O)C(O)CCC(O)CC(O)CC(O)CC(=O)O[C@H]1C)CC(O)C2C(=O)O | CBS 94 | - | MIC | broth dilution | 3.9 µg/mL |
| CC(C)(C)[Si](C)(C)Oc1ccc(C2=CN3CCC2CC3)cc1 | ATCC 13803 | - | EC50 | broth dilution | >16 µg/mL |
| Clc1ccc(C(Cn2ccnc2)OCc2c(Cl)cccc2Cl)c(Cl)c1 | 19 isolates | - | MIC50 | - | 0.5 µg/mL |
| O=C(OC1Cc2c(O)cc(O)cc2OC1c1cc(O)c(O)c(O)c1)c1cc(O)c(O)c(O)c1 | Clinical isolate 4 | - | MIC50 | broth dilution | >128 µg/mL |
| CC1(C)C=C2C3CCC4[C@@]5(C)CCC(O)C(C)(C)C5CC[C@@]4(C)[C@]3(C)CC[C@@]2(C(=O)O)CC1 | ATCC 750 | - | MIC | broth dilution | >200 µg/mL |
| Cc1cccc(O)c1 | - | - | MIC | broth dilution | 850 µg/mL |
| Clc1ccc(C(Cn2ccnc2)OCc2ccc(Sc3ccccc3)cc2)c(Cl)c1 | 19 isolates | - | MIC50 | - | 4 µg/mL |
| Clc1ccc(COC(Cn2ccnc2)c2ccc(Cl)cc2Cl)c(Cl)c1 | LM 759 | - | MIC100 | broth dilution | 32 µg/mL |
| C/C=C/C(=O)Oc1cccc2cccnc12 | - | - | MIC | - | 50 µg/mL |
| COc1cc(C[C@H](C)[C@H](C)Cc2ccc(O)c(O)c2)ccc1O | CCC 131-1997 | - | MIC100 | broth dilution | 62.5 µg/mL |
| COc1cc(C)ccc1O | - | - | MIC | broth dilution | 2240 µg/mL |
| Oc1ccc(C2Oc3ccc(/C=C/c4cc(O)cc5c4C(c4cc(O)cc(O)c4)C(c4ccc(O)cc4)O5)cc3C2c2cc(O)cc3c2C(c2cc(O)cc(O)c2)C(c2ccc(O)cc2)O3)cc1 | ATCC MYA-3404/T1 | - | MIC95 | broth dilution | >300 µg/mL |
| CCC(C)CC(C)CCCCCCCCC(=O)N[C@H]1C[C@@H](O)[C@H](NCCN)NC(=O)[C@@H]2[C@@H](O)CCN2C(=O)[C@H]([C@H](O)CCN)NC(=O)[C@H]([C@H](O)[C@@H](O)c2ccc(O)cc2)NC(=O)[C@@H]2C[C@@H](O)CN2C(=O)[C@H]([C@@H](C)O)NC1=O | 1490A | - | MIC | broth dilution | 0.5 µg/mL |
| COc1cc(O)c2c(c1)OC(c1ccc(O)cc1)CC2=O | ATCC 13803 | - | MIC | broth dilution | 630 µg/mL |
| O=C(O)c1cccc(-n2nnnc2SCc2cc([N+](=O)[O-])cc([N+](=O)[O-])c2)c1 | 156 | 48 h | EC80 | broth dilution | >500 µM |
| c1ccc(-c2ccc(C(c3ccccc3)n3ccnc3)cc2)cc1 | 27 strains | - | MIC | - | 8.93 µg/mL |
| O=[N+]([O-])c1cc(C[Se]c2nnnn2C2CCCCC2)cc([N+](=O)[O-])c1 | 156 | 24 h | EC80 | broth dilution | >500 µM |
| C[C@@H]1[C@H](O)[C@@H](C)/C=C/C=C/C=C/C=C/C=C/C=C/C=C/[C@H](O[C@@H]2O[C@H](C)[C@@H](O)[C@H](N)[C@@H]2O)C[C@@H]2O[C@](O)(C[C@@H](O)C[C@@H](O)[C@H](O)CC[C@@H](O)C[C@@H](O)CC(=O)O[C@H]1C)C[C@H](O)[C@H]2C(=O)O | ATCC 13803 | - | MIC100 | broth dilution | >1024 µg/mL |
| C1=C(c2ccc3ccccc3c2)C2CCN1CC2 | ATCC 13803 | - | EC50 | broth dilution | >16 µg/mL |
| CCCCCOc1cccc2cccnc12 | - | - | MIC | - | 50 µg/mL |
| Clc1ccc(CCC(Cn2ccnc2)Sc2c(Cl)cccc2Cl)cc1 | 19 isolates | - | MIC90 | - | 1 µg/mL |
| CC(=O)N1CCN(c2ccc(OC[C@H]3CO[C@](Cn4ccnc4)(c4ccc(Cl)cc4Cl)O3)cc2)CC1 | 17 clinical isolates | - | MIC90 | broth dilution | ≤0.031 µg/mL |
| COc1cc(O)c2c(c1)C(=O)c1c(cc3c(c1O)-c1c(cc(C)c(C(=O)N[C@H](CO)C(=O)O)c1O)[C@H](O[C@@H]1O[C@H](C)[C@H](O)[C@H](O)[C@H]1O)[C@H]3O)C2=O | Kitasato 85-8 | - | MIC | - | 1.6 µg/mL |
| O=C(/C=C/c1ccccc1)Oc1cccc2cccnc12 | - | - | MIC | - | >100 µg/mL |
| Oc1cc(Cl)cc2cc(Cl)cnc12 | ATCC 750 | 24 h | MIC | - | 3.1 µg/mL |
| O=c1cc(-c2ccccc2)oc2cc(O)c(O)c(O)c12 | ATCC 200956 | - | MIC | - | 52 µg/mL |
| C=CCc1ccc(O)c(-c2cc(CC=C)ccc2O)c1 | - | - | MIC | broth dilution | 160 µg/mL |
| CN(C/C=C/C#CC(C)(C)C)Cc1cccc2ccccc12 | 17 clinical isolates | - | MIC50 | broth dilution | 8 µg/mL |
| Oc1cccc2cccnc12 | - | - | MIC | - | 50 µg/mL |
| C[C@@H]1C=C2C3CCC4[C@@]5(C)CC[C@@H](O)C(C)(C)C5CC[C@@]4(C)[C@]3(C)CC[C@@]2(C(=O)O)CC1 | ATCC 750 | - | MIC | broth dilution | >200 µg/mL |
| C[C@@H]1[C@H](O)[C@@H](C)/C=C/C=C/CC/C=C/C=C/C=C/C=C/C(O[C@H]2O[C@H](C)[C@@H](O)[C@H](N)[C@@H]2O)CC2O[C@](O)(CC(O)C(O)CCC(O)CC(O)CC(O)CC(=O)O[C@H]1C)CC(O)C2C(=O)O | Clinical isolates | - | MIC | broth dilution | 2 µg/mL |
| CCOC(=O)c1ccc(C2=CN3CCC2CC3)cc1 | ATCC 13803 | - | EC50 | broth dilution | >16 µg/mL |
| C[C@H]1[C@H](O)[C@@H](C)/C=C/C=C/C=C/C=C/C=C/C=C/C=C/[C@H](O[C@@H]2O[C@H](C)[C@@H](O)[C@H](N)[C@@H]2O)C[C@@H]2O[C@](O)(C[C@@H](O)C[C@@H](O)CC[C@H](O)[C@@H](O)C[C@@H](O)CC(=O)O[C@H]1C)C[C@H](O)[C@H]2C(=O)O | Clinical isolates | - | MIC | broth dilution | 0.5 µg/mL |
| CC(C)CCCc1ccc2c(c1)C(=O)C(Cl)=C(Cl)C2=O | ATCC 200956 | - | MIC90 | absorbance | >11.3 µg/mL |
| Oc1ccccc1 | - | - | MIC | broth dilution | >45260 µg/mL |
| CC(C)OC(=O)c1ccc(C2=CN3CCC2CC3)cc1 | ATCC 13803 | - | EC50 | broth dilution | >16 µg/mL |
| Oc1c(Cl)cc(Cl)c2cccnc12 | ATCC 750 | 24 h | MIC | - | 3.1 µg/mL |
| C[C@@H]1[C@H](O)[C@@H](C)/C=C/C=C/CC/C=C/C=C/C=C/C=C/[C@H](O[C@@H]2O[C@H](C)[C@@H](O)[C@H](N)[C@@H]2O)C[C@@H]2O[C@](O)(C[C@@H](O)[C@H](O)CC[C@@H](O)C[C@@H](O)C[C@@H](O)CC(=O)O[C@H]1C)C[C@H](O)[C@H]2C(=O)O | - | - | MIC | - | 0.5 µg/mL |
| CC[C@@H]([C@H](C)O)n1ncn(-c2ccc(N3CCN(c4ccc(OC[C@@H]5CO[C@@](Cn6cncn6)(c6ccc(F)cc6F)C5)cc4)CC3)cc2)c1=O | Clinical isolates | - | MIC | broth dilution | 0.06 µg/mL |
| Oc1c(Cl)ccc2cccnc12 | ATCC 750 | 24 h | MIC | - | 6.2 µg/mL |

Repeating the first 4 entries:

smiles	strain	conditions	endpoint	method	result
CCC(C)n1ncn(-c2ccc(N3CCN(c4ccc(OC[C@H]5CO[C@](Cn6cncn6)(c6ccc(Cl)cc6Cl)O5)cc4)CC3)cc2)c1=O	54 isolates	-	MIC50	-	0.25 µg/mL
O[C@](Cn1cncn1)(Cn1cnc(/C=C/c2ccc(OCC(F)(F)C(F)F)cc2)n1)c1ccc(F)cc1F	10 strains	-	Mean MIC80	-	0.06 µg/mL
C/C=C/c1ccc(O)c(OC)c1	-	-	MIC	broth dilution	550 µg/mL
CC(=O)N1CCN(c2ccc(OC[C@H]3CO[C@](Cn4ccnc4)(c4ccc(Cl)cc4Cl)O3)cc2)CC1	Clinical isolates	-	MIC	-	16 µg/mL